Measured values from several laboratories, pooled; numbers as filed in NIAID ChemDB.

Common to all: cytotoxicity tests; cell line: HFF; endpoint: CC50

Rows are shuffled and stem from different studies. CCn: concentration that lowers growth or viability of the cells by n%.

Nc1ncnc2c1ncn2[C@@H]1C[C@@H](O)[C@H](CO)O1 ; result: >100 µM
COc1nc(N)nc2c1ncn2C=C1CC1CO ; result: >404 µM
CC1=C(C(=O)NCc2cc(F)cc(F)c2)OC2OC3(C)CC[C@H]4[C@H](C)CC[C@@H]1[C@@]24OO3 ; result: 78 µM
COC(=O)[C@H](C)NP(=O)(OC[C@@H]1C[C@]12C[C@@H]2n1cnc2c(N)ncnc21)Oc1ccccc1 ; result: 100 µM
N#Cc1cn([C@@H]2O[C@H](CO)[C@@H](O)[C@@H]2I)c2ncnc(N)c12 ; result: 100 µM
O=C1C(c2c(O)[nH]c3ccc(Br)cc23)=Nc2ccccc21 ; result: >320 µg/mL
Nc1ccn([C@@H]2C[C@@H](O)[C@H](CO)O2)c(=O)n1 ; result: >100 µM
CCC[CH2][Sn+2][CH2]CCC ; result: <1 µg/mL
CCOC(=O)C1C(c2ccc(C)cc2)CC(c2ccc(Cl)cc2)=CC12NCCN2 ; result: 0.1279 µM
CN[C@H]1C[C@@H]2O[C@](C)([C@H]1OC)n1c3ccccc3c3c4c(c5c6ccccc6n2c5c31)C(=O)NC4 ; result: 0.0098 µM
CC1=C(C(=O)NCc2ccc(F)cc2)OC2OC3(C)CC[C@H]4[C@H](C)CC[C@@H]1[C@@]24OO3 ; result: 320 µM
NC(=O)c1cn([C@H]2C[C@H](O)[C@@H](CO)O2)c2ncnc(N)c12 ; result: 32 µM
Nc1nc(F)nc2c1ncn2/C=C1\CC1CO ; result: >300 µM
Clc1nc(Cl)c(Cl)[nH]1 ; result: 75 µM
NC(=S)c1cn([C@H]2C[C@H](O)[C@@H](CO)O2)c2ncnc(N)c12 ; result: 41 µM
[N-]=[N+]=N[C@H]1[C@H](O)[C@@H](CO)O[C@H]1n1cc(C(N)=O)c2c(N)ncnc21 ; result: 66 µM
CCOC(=O)C1C(c2ccc(Cl)cc2)CC(c2ccc(OC)cc2)=CC12NCCN2 ; result: 0.1279 µM
C[CH2][Sn]([Br])([Br])[CH2]C.c1ccc(-c2nc3ccccc3[nH]2)nc1 ; result: 13 µg/mL
Oc1cccc2c1[nH]c1c(C3=C[C@]4(O)C/C=C/CCCCCN5CC[C@@H]3[C@]3(C[C@@H]6/C=C\CCCCN6C34)C5)nccc12 ; result: >1 µM
OCCOCn1c(Cl)nc(Cl)c1Cl ; result: 45 µM
C=C1[C@H](CO)[C@@H](O)C[C@@H]1n1cnc2c(=O)[nH]c(N)nc21 ; result: 120 µM
N#Cc1cn([C@H]2C=C[C@@H](CO)O2)c2ncnc(N)c12 ; result: >100 µM
OCCOCn1c(Br)nc(Cl)c1Cl ; result: >100 µM
Nc1nc(F)nc2c1ncn2/C=C1/CC1CO ; result: 10 µM
N#Cc1cn([C@@H]2O[C@H](CO)[C@@H](O)[C@@H]2Cl)c2ncnc(N)c12 ; result: 140 µM
O=C1C(c2c(O)[nH]c3ccc(F)cc23)=Nc2ccccc21 ; result: >320 µg/mL
CCOC(=O)C1C(c2ccccc2)CC(c2ccccc2)=CC12NCCN2 ; result: 0.1279 µM
NC(=S)c1cn([C@H]2CC[C@@H](CO)O2)c2ncnc(N)c12 ; result: 29 µM
OCC(CO)OCn1c(Br)nc(Cl)c1Cl ; result: >100 µM
OC[C@H]1O[C@@H](n2cnc3nc4cc(Cl)c(Cl)cc4cc32)[C@H](O)[C@@H]1O ; result: >100 µM
COc1ccc2c(c1)c1c3c(c4c5ccccc5n(C)c4c1n2CC(O)CN(C)C)C(=O)NC3=O ; result: >0.1 µM
OC[C@H]1O[C@@H](n2c(Cl)nc3cc4cc(Cl)c(Cl)cc4nc32)[C@H](O)[C@@H]1O ; result: 18 µM
O=C1CCCN2C(CC1)C[C@@]13CN4CCCC/C=C/CC[C@@](O)(C=C(c5nccc6c5[nH]c5c(O)cccc56)[C@H]1CC4)[C@@H]23 ; result: >10 µM
Clc1nc(Br)[nH]c1Cl ; result: >100 µM
CC[C@@]1(C)NC(=O)[C@H](CCCCCC(=O)[C@H](C)OC(=S)Oc2ccccc2)NC(=O)[C@H]2C[C@H](C)CN2C(=O)C(Cc2ccccc2)NC1=O ; result: 0.539 µM
OCC(CO)OCn1c(Cl)nc(Cl)c1Cl ; result: >100 µM
O=C1C(c2c(O)[nH]c3ccc(Cl)cc23)=Nc2ccccc21 ; result: >320 µg/mL
NC(=S)c1cn([C@@H]2O[C@H](CO)[C@@H](O)[C@@H]2N)c2ncnc(N)c12 ; result: 73 µM
OC[C@H]1O[C@@H](n2cnc3cc4cc(Cl)c(Cl)cc4cc32)[C@H](O)[C@@H]1O ; result: >100 µM
CC1=C(C(=O)NCc2ccc(F)c(F)c2)OC2OC3(C)CC[C@H]4[C@H](C)CC[C@@H]1[C@@]24OO3 ; result: 320 µM
OC[C@H]1O[C@@H](n2c(Cl)nc3cc(Cl)c(Cl)cc32)[C@H](O)[C@@H]1O ; result: 238 µM
NC(=O)c1cn([C@@H]2O[C@H](CO)[C@@H](O)[C@H]2O)c2ncnc(N)c12 ; result: 0.07 µM
CC1=C(CC/C(C)=C/CC[C@@]2(C)CC[C@@H]([C@@H](C)C(=O)O)OO2)C(C)(C)CCC1 ; result: <0.392 µM
OCC1OC(n2c(SCc3ccccc3)nc3nc4cc(Cl)c(Cl)cc4nc32)C(O)C1O ; result: 20 µM
[Cl][Sn]([c]1ccccc1)([c]1ccccc1)[c]1ccccc1 ; result: 2.3 µg/mL
CC[C@@]1(C)NC(=O)[C@H](CCCCCC(=O)[C@H](C)OC(C)=O)NC(=O)[C@H]2C[C@H](C)CN2C(=O)C(Cc2ccccc2)NC1=O ; result: 0.6321 µM
COC(=O)[C@H](C)NP(=O)(OC[C@H]1C/C1=C/n1cnc2c(=O)[nH]c(N)nc21)Oc1ccccc1 ; result: >206 µM
COC(=O)C(C)NOP(OC[C@H]1C/C1=C/n1cnc2c(N)[nH]c(=O)nc21)Oc1ccccc1 ; result: >205 µM
COC(=O)[C@H](C)NP(=O)(OC[C@H]1C/C1=C/n1cnc2c(OC)nc(N)nc21)Oc1ccccc1 ; result: 34 µM
CCOC(=O)C1C(c2ccc(F)cc2)CC(c2ccccc2)=CC12NCCN2 ; result: 0.1279 µM
N#Cc1cn([C@H]2CC[C@@H](CO)O2)c2ncnc(N)c12 ; result: >100 µM
CCOC(=O)C1C(c2ccccc2)CC(c2ccc(OC)cc2)=CC12NCCN2 ; result: 0.1279 µM
OC[C@H]1O[C@@H](n2c(Br)nc(Cl)c2Cl)[C@@H](O)[C@@H]1O ; result: >100 µM

A second listing of 3 rows from above:

SMILES	result
Nc1ccn([C@@H]2C[C@@H](O)[C@H](CO)O2)c(=O)n1	>100 µM
NC(=O)c1cn([C@@H]2O[C@H](CO)[C@@H](O)[C@H]2O)c2ncnc(N)c12	0.07 µM
Oc1cccc2c1[nH]c1c(C3=C[C@]4(O)C/C=C/CCCCCN5CC[C@@H]3[C@]3(C[C@@H]6/C=C\CCCCN6C34)C5)nccc12	>1 µM